For at least one entry, the source does not settle the construct or the ends of the probe. A weaker result is weaker than the reference pair of the same experiment. At least one verdict rests on a figure or table, not on a statement of the authors. For part of these data: Protein sequences can lack the tags named with them.
Tests used:
[1] = system: DdaA homolog Hi (Haemophilus influenzae 65290_NP_Hi3); experiment: EMSA; conditions: protein in 150 mM NaCl, 20 mM Tris-HCl pH 7.5
[2] = target: T1, DdaA (A. baumannii), AbDdaA (Acinetobacter baumannii ATCC 17978) (UniProt V5VBS3); experiment: EMSA; conditions: weakened or lost; protein in 150 mM NaCl, 20 mM Tris-HCl pH 7.5
T1 sequence (looked up, limits assumed): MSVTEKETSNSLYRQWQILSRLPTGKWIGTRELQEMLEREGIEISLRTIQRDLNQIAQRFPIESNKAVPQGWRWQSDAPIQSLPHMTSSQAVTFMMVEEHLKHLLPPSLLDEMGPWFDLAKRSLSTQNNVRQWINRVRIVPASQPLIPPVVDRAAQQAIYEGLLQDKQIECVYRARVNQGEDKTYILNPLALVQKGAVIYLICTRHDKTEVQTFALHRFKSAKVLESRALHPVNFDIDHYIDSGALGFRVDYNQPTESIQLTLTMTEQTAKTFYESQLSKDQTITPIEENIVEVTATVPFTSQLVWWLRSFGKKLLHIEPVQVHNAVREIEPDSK

“TTTCCGGTCTGGGCGAGACAATATGACGTGTAATTTTAACC (double strand) [recA promoter M3]”: binds more weakly ([1]; weakened or lost); binds more weakly [2].

“TTTCCGGTCTGGGCGACACAATATGACGTGTAATTTTAACC (double strand) [recA promoter motif WT (AR-DDRM)]”: binds [1].
